Measured values: patent US9931320B2, “Parasiticidal oral veterinary compositions comprising systemically-acting active agents, methods and uses thereof” (MERIAL INC., priority 2012, dated 2018)

Key:
[1] = tested on: Toxocara canis (roundworm); assay: Efficacy against Toxocara canis (roundworm) in dogs (Example 13); type: in vivo; settings: after 8 days; treated on Day 0; 0.5 mg/kg milbemycin oxime (Table 11) or 0.5 mg/kg milbemycin oxime and 2.5 mg/kg Compound A (Table 12); nine infected Beagle dogs per group
[2] = tested on: Dirofilaria immitis (heartworm); assay: Efficacy against Dirofilaria immitis (heartworm) in dogs (Example 16); settings: after 119 days; treated on Day 0; 0.5 mg/kg milbemycin oxime (Table 33) or 0.5 mg/kg milbemycin oxime and 2.5 mg/kg Compound A (Table 34); infected dogs

Substance: milbemycin oxime
- Adult T. canis worms found [1]: No worms were found in any dog
- Adult D. immitis worms recovered [2]: No worms were recovered
